Results: publication PMC5945682

Test system: SrpA (Pseudomonas aeruginosa PAK)
Experiment: EMSA
Details: 2x binding buffer: 40 mM Tris-HCl pH 7.5, 4 mM MgCl2, 100 mM NaCl, 10% glycerol, 2 mM DTT, 0.2 mg/ml BSA, 0.02 mg/ml poly(dI-dC), 1 mM EDTA; 25 C 30 min; SrpA 0-7.42 uM; recombinant protein; residues 1-84; protein details: His-tag (pQE30); label: Cy3; probe letters rebuilt from the primers and the genome; part of a longer molecule

## CCTCTTAATCAAGGATGTGAGGCGACGGCGATCTGTTTTAAAACTGAAGCTTGCCAAGATAATCACACCCCATGCTAAGGTCTTGAGGACCGGGGTTGCACTGGTTGTAAAGCTTCTCCCGTCTTGCAAAACCGATGTAGAATTCCCGTGTTACGTTGTCGGGGTCTAGGTCATTAGCCAGCATATCCGATTTGGAGATACCGCCAGCATATGGCACGGCCAAAGAAATTGCAATATTCGGGTCTTTGAGAATGAG (double strand) [gp058 promoter]
  binding result: binds

Construct, isoform or probe ends are uncertain for at least one entry.
